System: influenza A/Indonesia/5/05 (H5N1) matrix protein M1, influenza A/Indonesia/5/05 (H5N1) virus, Q2LG20 1-252
Assay: SDS-PAGE of purified H3N2 rVLPs (self-association)

## influenza A/Indonesia/5/05 (H5N1) matrix protein M1
  result: binds

Source: patent US20170253861
